Anti-infective test results gathered from many reports (values: NIAID ChemDB through PubChem).

All rows: host cell toxicity; cell line: Huh7; read-out: CC50

CCn is the concentration with n% toxicity to the cells. Lines come from different laboratories, so protocols vary. Blank or dashed fields: not listed here. a–b is a range or a potency band.

compound,method,value
CC(=O)N(C)[C@@H](C(=O)N1CCC[C@H]1C(=O)Nc1ccc(C#Cc2ccc(NC(=O)[C@@H]3CCCN3C(=O)[C@@H](c3ccccc3)N(C)C(C)=O)cc2)cc1)c1ccccc1,resazurin,>10 µM
N#Cc1c(Nc2cc(Cl)nc(Cl)n2)s[nH]c1=O,-,<50 µM
CN(C)[C@@H](Cc1ccccc1)C(=O)N1CCC[C@H]1C(=O)Nc1ccc(C#Cc2ccc(NC(=O)[C@@H]3CCCN3C(=O)[C@H](Cc3ccccc3)N(C)C)cc2)cc1,resazurin,5.82 µM
N#Cc1c(Nc2ccc([N+](=O)[O-])cc2)s[nH]c1=O,-,>50 µM
CN1CCN([C@@H](C(=O)N2CCC[C@H]2C(=O)Nc2ccc(C#Cc3ccc(NC(=O)[C@@H]4CCCN4C(=O)[C@@H](c4ccccc4)N4CCN(C)CC4)cc3)cc2)c2ccccc2)CC1,resazurin,6.02 µM
Fc1ccc(CNc2nc(NCC(F)(F)F)c3nc(-c4ccc(F)cc4)cnc3n2)cc1,ATP,<10 µM
N#Cc1c(Nc2ccccc2C(F)(F)F)s[nH]c1=O,-,>50 µM
CCNc1ncc2c(Nc3cc(C)ccc3Sc3ccc(O)cc3)ncnc2n1,MTT,>50 µM
CN1CCN([C@H](C(=O)N2CCC[C@H]2C(=O)Nc2ccc(C#Cc3ccc(NC(=O)[C@@H]4CCCN4C(=O)[C@H](c4ccccc4)N4CCN(C)CC4)cc3)cc2)c2ccccc2)CC1,resazurin,2.84 µM
COc1ccc(-c2cnc3nc(N)nc(N4CCN(S(=O)(=O)c5ccccc5)CC4)c3n2)cc1OC,ATP,10–20 µM
CC(=O)Nc1ccc(-c2ccc3nc(N)nc(N4CCS(=O)(=O)CC4)c3n2)cc1,-,>20 µM
Cc1ccc(Sc2ccc(NS(C)(=O)=O)cc2)c(Nc2ncnc3nc(C(C)C)ccc23)c1,MTT,>50 µM
CC(=O)N(C)[C@H](C(=O)N1CCC[C@H]1C(=O)Nc1ccc(C#Cc2ccc(NC(=O)[C@@H]3CCCN3C(=O)[C@H](c3ccccc3)N(C)C(C)=O)cc2)cc1)c1ccccc1,resazurin,>10 µM
COC(=O)C(C)(C)NP(=O)(OC[C@H]1O[C@@H](c2ccc3c(N)ncnn23)[C@](C)(O)[C@@H]1O)Oc1cccc2ccccc12,MTT,>100 µM
Cc1ccc(S(=O)(=O)Nc2cc(-c3ccc(S(C)(=O)=O)cc3)sc2C(=O)O)c(C)c1,-,>200 µM
COc1ccc(-c2cnc3nc(N)nc(N4CCN(C(=O)Oc5ccc(C)cc5)CC4)c3n2)cc1OC,ATP,<10 µM
COC(=O)Nc1ccc(-c2ccc3nc(N)nc(NCCS(C)(=O)=O)c3n2)cc1,-,10–20 µM
Nc1nc(N2CCOCC2)c2nc(-c3ccc(CN4CCOCC4)cc3)cnc2n1,-,>20 µM
CC1=CN(c2ccc([N+](=O)[O-])cc2)[C@@H](c2ccc(C(F)(F)F)cc2)[C@@H](C)C1=O,MTT,>50 µM
CC(C)Oc1nc(N)nc2ccc(-c3ccc(C(=O)NC4CC4)c(Cl)c3)nc12,-,>20 µM
COc1cccc2c(C(=O)N3CCC[C@H]3C(=O)Nc3ccc(/C=C/c4ccc(NC(=O)[C@@H]5CCCN5C(=O)c5nc(Cl)cc6c(OC)cccc56)cc4)cc3)nc(Cl)cc12,resazurin,>10 µM
CCOc1nc(N)nc2ccc(-c3ccc(NS(=O)(=O)CC)cc3)nc12,-,>20 µM
N#Cc1c(Nc2cccc([N+](=O)[O-])c2)s[nH]c1=O,-,>50 µM
COc1ccc(OC(=O)N2CCN(c3nc(N)nc4ncc(-c5ccc(OC)c(OC)c5)nc34)CC2)cc1,ATP,<10 µM
CCOc1nc(N)nc2ncc(-c3ccc(Cl)cc3)nc12,-,<10 µM
Cc1ccc(Sc2ccc(O)cc2)c(Nc2ncnc3nc(N4CCOCC4)ncc23)c1,MTT,>50 µM
CC(C)C(=O)O[C@@H]1[C@@H](CO)O[C@@H](c2ccc3c(N)ncnn23)[C@]1(C)O,MTT,>100 µM
O=C1CN(C(C(=O)N2CCC[C@H]2C(=O)Nc2ccc(C#Cc3ccc(NC(=O)[C@@H]4CCCN4C(=O)C(c4ccccc4)N4CCNC(=O)C4)cc3)cc2)c2ccccc2)CCN1,resazurin,>10 µM
C[C@@]1(O)[C@H](O)[C@@H](CO)O[C@H]1c1cnc2c(N)ncnn12,MTT,34 µM
CS(=O)(=O)N[C@@H](C(=O)N1CCC[C@H]1C(=O)Nc1ccc(C#Cc2ccc(NC(=O)[C@@H]3CCCN3C(=O)[C@H](NS(C)(=O)=O)c3ccccc3)cc2)cc1)c1ccccc1,resazurin,>10 µM
CCOc1nc(N)nc2ccc(-c3cccc(NS(=O)(=O)C4CC4)c3)nc12,-,>20 µM
CCCc1ccc2c(Nc3cc(C)ccc3Sc3ccccc3)ncnc2n1,MTT,11.8 µM
CS(=O)(=O)CCNc1nc(N)nc2ccc(-c3cccc(NS(C)(=O)=O)c3)nc12,-,>20 µM
Nc1nc(N2CCOCC2)c2nc(-c3cccc(OC(F)(F)F)c3)cnc2n1,-,<10 µM
COCCOc1nc(N)nc2ccc(-c3ccc(NC(=O)OC)cc3)nc12,-,>20 µM
N#Cc1cccc(-c2cnc3nc(N)nc(N4CCOCC4)c3n2)c1,-,>20 µM
O=C(Nc1ccc(C#Cc2ccc(NC(=O)[C@@H]3CCCN3C(=O)[C@H](c3ccccc3)N3CCC(O)CC3)cc2)cc1)[C@@H]1CCCN1C(=O)[C@H](c1ccccc1)N1CCC(O)CC1,resazurin,5 µM
CCOC(=O)[C@H](C)NP(=O)(OC[C@H]1O[C@@H](c2cnc3c(=O)[nH]c(N)nn23)[C@](C)(O)[C@@H]1O)Oc1cccc2ccccc12,MTT,>100 µM
NS(=O)(=O)c1ccc(CNc2nc(NCC(F)(F)F)c3nc(-c4ccc(F)cc4)cnc3n2)cc1,ATP,>20 µM
N#Cc1c(Nc2ccc(Br)c(Cl)c2)s[nH]c1=O,-,>50 µM
Nc1nc(N2CCOCC2)c2nc(-c3cccnc3)cnc2n1,-,10–20 µM
COc1ccc(C)cc1Nc1s[nH]c(=O)c1C#N,-,>50 µM
CCOc1nc(N)nc2ccc(-c3ccc(C(=O)NCCN(C)C)cc3)nc12,-,10–20 µM
N#Cc1cccc(Nc2s[nH]c(=O)c2C#N)c1,-,>50 µM
Nc1nc(O[C@@H]2CCOC2)c2nc(-c3ccc(NC(=O)[C@H]4CCNC4)c(F)c3)ccc2n1,-,>20 µM